System: T. b. brucei BSF trypomastigotes
Experiment: Antitrypanosomal evaluation on T. b. brucei BSF trypomastigotes (Alamar Blue)
Type: cell-based, Trypanosoma brucei brucei
Conditions: SI = CC50 HepG2/EC50 T. brucei brucei
Procedure: The effects of the tested compounds on the growth of T. b. brucei were assessed by Alamar Blue® assay described by Räz et al. T. b. brucei AnTat 1.9 (IMTA, Antwerpen, Belgium) was cultured in MEM with Earle’s salts, supplemented according to the protocol of Baltz et al. with the following modifications: 0.5 mM mercaptoethanol (Sigma Aldrich®, France), 1.5 mM L-cysteine (Sigma Aldrich®), 0.05 mM bathocuproïne sulfate (Sigma Aldrich®) and 20% heat-inactivated horse serum (Gibco®, France), at 37 °C and 5% CO2. They were incubated at an average density of 2000 parasites/100 µL in sterile 96-wells plates (Fisher®, France) with various concentrations of compounds dissolved in DMSO, in duplicate. Appropriate controls suramin, treated with sterile water, and fexinidazole, treated with DMSO on sterile water (reference drugs purchased from Sigma Aldrich, France and Fluorochem, UK) were added to each set of experiments. […] The plates were read in a ENSPIRE microplate reader (PerkinElmer, Waltham, MA, USA) using an excitation wavelength of 530 nm and an emission wavelength of 590 nm. […] EC50 were calculated by nonlinear regression analysis processed on dose-response curves, using GraphPad Prism software (USA). EC50 values were calculated from three separate experiments.

Question: Cc1ccc(C(=O)Nc2ccc(S(=O)(=O)O)c3cc(S(=O)(=O)O)cc(S(=O)(=O)O)c23)cc1NC(=O)c1cccc(NC(=O)Nc2cccc(C(=O)Nc3cc(C(=O)Nc4ccc(S(=O)(=O)O)c5cc(S(=O)(=O)O)cc(S(=O)(=O)O)c45)ccc3C)c2)c1 [Suramin, reference compound] was tested. Which “SI T. b. brucei” value did it give?
Answer: >1250
